Assay results: US11813270B2, “Nitric oxide-releasing antibacterial compounds, formulations, and methods pertaining thereto” (KNOW BIO, LLC, priority 2020, dated 2023)

Legend:
P. aeruginosa biofilms = conditions: exposure 18-24 h
[1] = tested on: Staphylococcus aureus (MRSA); test: MIC/MBC assay (CLSI method); format: cell-based; conditions: for MBC, Rep 1 / MBC, Rep 2 / MIC, Rep 1 / MIC, Rep 2: Clinical isolate
Mycobacterium abscessus = test: MIC/MBC assay (CLSI method); format: cell-based
Pseudomonas aeruginosa = test: MIC/MBC assay (CLSI method); format: cell-based; conditions: for MBC / MIC: Pseudomonas aeruginosa ATCC 19143
P. aeruginosa [2] = test: Time kill assay
P. aeruginosa [3] = test: Anti-microbial activity (MBC) under aerobic and anaerobic growth conditions, 21 strains; conditions: 21 strains of P. aeruginosa; two strains could not be grown anaerobically
Haemophilus influenzae = test: MIC/MBC assay (CLSI method); conditions: Haemophilus influenzae N0097; Chloramphenicol-R, Tet-R, and Amp-R
Acetinobacter baumannii = test: MIC/MBC assay (CLSI method); conditions: Acetinobacter baumannii N0075; Carb-R, XDR
[4] = tested on: Staphylococcus aureus (MSSA); test: MIC/MBC assay (CLSI method); conditions: Staphylococcus aureus (MSSA) N0007; Wichita; ATCC 29213
Escherichia coli = test: MIC/MBC assay (CLSI method); conditions: Escherichia coli N0077; Carb-R, 3rd-gen Ceph-R, ESBL+, MDR
Burkolderia cenocepacia = test: MIC/MBC assay (CLSI method); conditions: Burkolderia cenocepacia N0034; Clinical Isolate
Streptococcus pyogenes = test: MIC/MBC assay (CLSI method); conditions: Streptococcus pyogenes N0098; Erythromycin-R
[5] = S. aureus N0040, MRSA, unit not given
[6] = Staphylococcus aureus (MRSA) N0040, MDR, MRSA, Vanco-S
[7] = M. abcessus N0010, Clinical Isolate
[8] = M. abcessus N0016, Clinical Isolate
[9] = M. abcessus N0017, Clinical Isolate, listed as VT-20-110, sodium salt
[10] = M. abcessus N0018, Clinical Isolate
[11] = M. abcessus N0019, Clinical Isolate
[12] = M. abcessus N0020, Clinical Isolate
[13] = M. abscessus N0010, clinical, unit not given
[14] = M. abscessus N0016, clinical, unit not given
[15] = M. abscessus N0017, clinical, unit not given
[16] = M. abscessus N0018, clinical, unit not given
[17] = M. abscessus N0019, clinical, unit not given
[18] = M. abscessus N0020, clinical, unit not given
[19] = M. abscessus N0046, unit not given
[20] = Mycobacterium abcessus N0019, Clinical Isolate
[21] = P. aeruginosa N0049, PAK, Lab strain, unit not given
[22] = P. aeruginosa phenotype ATCC, obligate aerobe
[23] = P. aeruginosa phenotype MDR, CarbR, TobraR.
[24] = P. aeruginosa phenotype Not MDR, CarbS, TobraS. Mucoid
[25] = P. aeruginosa phenotype XDR, CarbR, TobraI.
[26] = P. aeruginosa phenotype XDR, CarbR, TobraR.
[27] = P. aeruginosa phenotype XDR, TobraR, CarbR. (first of three such strains, r19)
[28] = P. aeruginosa phenotype XDR, TobraR, CarbR. (second of three such strains, r21)
[29] = P. aeruginosa phenotype XDR, TobraR, CarbR. (third of three such strains, r23)
[30] = listed as NCT-19-096, sodium salt
[31] = listed as NCT-19-168, sodium salt
[32] = Pseudomonas aeruginosa N0049, PAK WT

methane trisdiazeniumdiolate sodium salt
concentration sufficient to eradicate bacteria biofilms (>3-log reduction) (P. aeruginosa biofilms): 0.391 mg/ml
MBC lower than the MBC of the MD3 OG-lib ([1]; S. aureus): 16 ×
MBC, Rep 1 [1, 5]: 0.25
MBC, Rep 2 [1, 5]: 0.25
MIC, Rep 1 [1, 5]: 0.125
MIC, Rep 2 [1, 5]: 0.125
MBC, Rep 1 [1, 6]: 0.25 mg/mL
MBC, Rep 2 [1, 6]: 0.25 mg/mL
MIC, Rep 1 [1, 6]: 0.125 mg/mL
MIC, Rep 2 [1, 6]: 0.125 mg/mL
MBC (Mycobacterium abscessus; [7]): 1 mg/mL
MIC (Mycobacterium abscessus; [7]): 0.25 mg/mL
MBC (Mycobacterium abscessus; [8]): 1 mg/mL
MIC (Mycobacterium abscessus; [8]): 0.25 mg/mL
MBC (Mycobacterium abscessus; [9]): 2 mg/mL and 1 mg/mL
MIC (Mycobacterium abscessus; [9]): 0.5 mg/mL and 0.25 mg/mL
MBC (Mycobacterium abscessus; [10]): 1 mg/mL
MIC (Mycobacterium abscessus; [10]): 0.25 mg/mL
MBC (Mycobacterium abscessus; [11]): 1 mg/mL
MIC (Mycobacterium abscessus; [11]): 0.25 mg/mL
MBC (Mycobacterium abscessus; [12]): 1 mg/mL
MIC (Mycobacterium abscessus; [12]): 0.25 mg/mL
MBC (Mycobacterium abscessus; M. abcessus N0046, Ordway): 1 mg/mL
MIC (Mycobacterium abscessus; M. abcessus N0046, Ordway, listed as VT-20-110, sodium salt): 0.5 mg/mL and 0.25 mg/mL
MBC (Mycobacterium abscessus; [13]): 1
MIC (Mycobacterium abscessus; [13]): 0.25
MBC (Mycobacterium abscessus; [14]): 1
MIC (Mycobacterium abscessus; [14]): 0.25
MBC (Mycobacterium abscessus; [15]): 1
MIC (Mycobacterium abscessus; [15]): 0.25
MBC (Mycobacterium abscessus; [16]): 1
MIC (Mycobacterium abscessus; [16]): 0.25
MBC (Mycobacterium abscessus; [17]): 1
MIC (Mycobacterium abscessus; [17]): 0.25
MBC (Mycobacterium abscessus; [18]): 1
MIC (Mycobacterium abscessus; [18]): 0.25
MBC (Mycobacterium abscessus; [19]): 1
MIC (Mycobacterium abscessus; [19]): 0.25
effectiveness at killing bacteria relative to cis-DMP/NO (Mycobacterium abscessus; M. abscessus strains of Table 14): four times as effective
MBC, Rep 1 (Mycobacterium abscessus; [20]): 1000 µg/mL
MBC, Rep 2 (Mycobacterium abscessus; [20]): 1000 µg/mL
MIC, Rep 1 (Mycobacterium abscessus; [20]): 250 µg/mL
MIC, Rep 2 (Mycobacterium abscessus; [20]): 250 µg/mL
concentration resulting in a 3-log reduction of bacterial survival (MBC) (Mycobacterium abscessus; all 9 strains of Mycobacterium abscessus tested): 1 mg/ml
MBC lower than the MBC of the MD3 NO-lib (Pseudomonas aeruginosa; P. aeruginosa): 64 ×
MBC, Rep 1 (Pseudomonas aeruginosa; [21]): 0.125
MBC, Rep 2 (Pseudomonas aeruginosa; [21]): 0.125
MIC, Rep 1 (Pseudomonas aeruginosa; [21]): 0.125
MIC, Rep 2 (Pseudomonas aeruginosa; [21]): 0.0625
MBC, rep 1 (Pseudomonas aeruginosa; [22]): 125 µg/mL
MBC, rep 2 (Pseudomonas aeruginosa; [22]): 125 µg/mL
MIC, rep 1 (Pseudomonas aeruginosa; [22]): 63 µg/mL
MIC, rep 2 (Pseudomonas aeruginosa; [22]): 63 µg/mL
MBC, rep 1 (Pseudomonas aeruginosa; [23]): 125 µg/mL
MBC, rep 2 (Pseudomonas aeruginosa; [23]): 125 µg/mL
MIC, rep 1 (Pseudomonas aeruginosa; [23]): 63 µg/mL
MIC, rep 2 (Pseudomonas aeruginosa; [23]): 125 µg/mL
MBC, rep 1 (Pseudomonas aeruginosa; [24]): 125 µg/mL
MBC, rep 2 (Pseudomonas aeruginosa; [24]): 125 µg/mL
MIC, rep 1 (Pseudomonas aeruginosa; [24]): 63 µg/mL
MIC, rep 2 (Pseudomonas aeruginosa; [24]): 63 µg/mL
MBC, rep 1 (Pseudomonas aeruginosa; P. aeruginosa phenotype PAK WT): 125 µg/mL
MBC, rep 2 (Pseudomonas aeruginosa; P. aeruginosa phenotype PAK WT): 125 µg/mL
MIC, rep 1 (Pseudomonas aeruginosa; P. aeruginosa phenotype PAK WT): 125 µg/mL
MIC, rep 2 (Pseudomonas aeruginosa; P. aeruginosa phenotype PAK WT): 62.5 µg/mL
MBC, rep 1 (Pseudomonas aeruginosa; [25]): 125 µg/mL
MBC, rep 2 (Pseudomonas aeruginosa; [25]): 125 µg/mL
MIC, rep 1 (Pseudomonas aeruginosa; [25]): 63 µg/mL
MIC, rep 2 (Pseudomonas aeruginosa; [25]): 63 µg/mL
MBC, rep 1 (Pseudomonas aeruginosa; [26]): 125 µg/mL
MBC, rep 2 (Pseudomonas aeruginosa; [26]): 125 µg/mL
MIC, rep 1 (Pseudomonas aeruginosa; [26]): 63 µg/mL
MIC, rep 2 (Pseudomonas aeruginosa; [26]): 63 µg/mL
MBC, rep 1 (Pseudomonas aeruginosa; [27]): 125 µg/mL
MBC, rep 2 (Pseudomonas aeruginosa; [27]): 125 µg/mL
MIC, rep 1 (Pseudomonas aeruginosa; [27]): 63 µg/mL
MIC, rep 2 (Pseudomonas aeruginosa; [27]): 63 µg/mL
MBC, rep 1 (Pseudomonas aeruginosa; [28]): 125 µg/mL
MBC, rep 2 (Pseudomonas aeruginosa; [28]): 125 µg/mL
MIC, rep 1 (Pseudomonas aeruginosa; [28]): 63 µg/mL
MIC, rep 2 (Pseudomonas aeruginosa; [28]): 63 µg/mL
MBC, rep 1 (Pseudomonas aeruginosa; [29]): 125 µg/mL
MBC, rep 2 (Pseudomonas aeruginosa; [29]): 125 µg/mL
MIC, rep 1 (Pseudomonas aeruginosa; [29]): 125 µg/mL
MIC, rep 2 (Pseudomonas aeruginosa; [29]): 63 µg/mL
MBC (Pseudomonas aeruginosa; [30]): 49 µg/mL
MIC (Pseudomonas aeruginosa; [30]): 49 µg/mL
MBC (Pseudomonas aeruginosa; [31]): 62.5 µg/mL
MIC (Pseudomonas aeruginosa; [31]): 62.5 µg/mL
MBC, Rep 1 (Pseudomonas aeruginosa; [32]): 0.125 mg/mL
MBC, Rep 2 (Pseudomonas aeruginosa; [32]): 0.125 mg/mL
MIC, Rep 1 (Pseudomonas aeruginosa; [32]): 0.125 mg/mL
MIC, Rep 2 (Pseudomonas aeruginosa; [32]): 0.0625 mg/mL
concentration resulting in a 3-log reduction of bacteria (MBC) (Pseudomonas aeruginosa; all 9 strains of P. aeruginosa tested): 0.125 mg/ml
MIC against P. aeruginosa (Pseudomonas aeruginosa; combined composition of β-cyclodextrin and MTDD): 49 µg/mL
concentration of PAK (P. aeruginosa [2]; 0.03125 mg/ml, pH 6.4, from 10^6, in three hours, stayed up to 25 hours (FIG. 14)): 10^2 CFU/ml
concentration of PAK (P. aeruginosa [2]; 0.03125 mg/ml, pH 7.4, from 10^6, in eight hours, stayed up to 25 hours (FIG. 14)): 10^2 CFU/ml
reduction of the concentration of PAK (CFU/ml) (P. aeruginosa [2]; 0.03125 mg/ml, pH 8.4 (FIG. 14)): insufficient to significantly reduce
concentration of PAK (P. aeruginosa [2]; 0.0625 mg/ml, pH 6.4, from 10^6, in two hours, stayed up to 25 hours (FIG. 13)): 10^2 CFU/ml
concentration of PAK (P. aeruginosa [2]; 0.125 mg/ml, pH 6.4, from 10^6, in two hours, stayed up to 25 hours (FIG. 12)): 10^2 CFU/ml
concentration of PAK (P. aeruginosa [2]; 0.125 mg/ml, pH 7.4, from 10^6, in four hours, stayed up to 25 hours (FIG. 12)): 10^2 CFU/ml
concentration of PAK (P. aeruginosa [2]; 0.125 mg/ml, pH 8.4, from 10^6, in six hours, stayed up to 25 hours (FIG. 12)): 10^5 CFU/ml
kill of bacteria at the lowest two doses evaluated (P. aeruginosa [2]; CAMHB, 37° C., survivors regrew by 24 hours): insufficient to kill all the bacteria
bacteria titers (P. aeruginosa [2]; PBS, 37° C., all concentrations used): below the limit of detection
time to kill all bacteria (P. aeruginosa [2]; all doses greater than or equal to 0.125 mg/ml): ≤ 8 h
concentration of PAK (P. aeruginosa [2]; dosage printed 0.125 mg/ml, pH 7.4, from 10^6, in six hours, stayed up to 25 hours (FIG. 13)): 10^2 CFU/ml
concentration of PAK (P. aeruginosa [2]; dosage printed 0.125 mg/ml, pH 8.4, at 25 hours (FIG. 13)): 10^6 CFU/ml
concentration of PAK (P. aeruginosa [2]; dosage printed 0.125 mg/ml, pH 8.4, from 10^6, in eight hours (FIG. 13)): 10^5 CFU/ml
activity under aerobic versus anaerobic growth conditions (P. aeruginosa [3]): identical for 18 of the strains
MBC, Rep 1 (Haemophilus influenzae): 125 µg/mL
MBC, Rep 2 (Haemophilus influenzae): 250 µg/mL
MIC, Rep 1 (Haemophilus influenzae): 125 µg/mL
MIC, Rep 2 (Haemophilus influenzae): 125 µg/mL
MBC, Rep 1 (Acetinobacter baumannii): 250 µg/mL
MBC, Rep 2 (Acetinobacter baumannii): 250 µg/mL
MIC, Rep 1 (Acetinobacter baumannii): 63 µg/mL
MIC, Rep 2 (Acetinobacter baumannii): 63 µg/mL
MBC, Rep 1 [4]: 125 µg/mL
MBC, Rep 2 [4]: 125 µg/mL
MIC, Rep 1 [4]: 125 µg/mL
MIC, Rep 2 [4]: 125 µg/mL
MBC, Rep 1 (Escherichia coli): 250 µg/mL
MBC, Rep 2 (Escherichia coli): 250 µg/mL
MIC, Rep 1 (Escherichia coli): 125 µg/mL
MIC, Rep 2 (Escherichia coli): 125 µg/mL
MBC, Rep 1 (Burkolderia cenocepacia): 125 µg/mL
MBC, Rep 2 (Burkolderia cenocepacia): 125 µg/mL
MIC, Rep 1 (Burkolderia cenocepacia): 63 µg/mL
MIC, Rep 2 (Burkolderia cenocepacia): 63 µg/mL
MBC, Rep 1 (Streptococcus pyogenes): 62.5 µg/mL
MBC, Rep 2 (Streptococcus pyogenes): 125 µg/mL
MIC, Rep 1 (Streptococcus pyogenes): 31.25 µg/mL
MIC, Rep 2 (Streptococcus pyogenes): 31.25 µg/mL

Where “and” joins values, the source holds several entries; their conditions need not be identical. Equal entries are not always repeated.
